Experimental findings from patent US12458691 (UNITED STATES OF AMERICA AS REPRESENTED BY THE SECRETARY …, dated 2025) are described below.

The target of experiment [1] is T1, FP8-1LSF (HIV-1 strain BG505).
In experiment [2] the target is T1, FP8-1LSF. The source holds these as a separate data set.
For a further experiment, the target named is FP8-1M6T (HIV-1 strain BG505).

Where two headings read alike, the source gives them in different places. Some results are limits rather than exact numbers.

B1: PGT151 (antibody, V domains shown)
VH: RVQLVESGGGVVQPGKSVRLSCVVSDFPFSKYPMYWVRQAPGKGLEWVAAISGDAWHVVYSNSVQGRFLVSRDNVKNTLYLEMNSLKIEDTAVYRCARMFQESGPPRLDRWSGRNYYYYSGMDVWGQGTTVTVSS
VL: DIVMTQTPLSLSVTPGQPASISCKSSESLRQSNGKTSLYWYRQKPGQSPQLLVFEVSNRFSGVSDRFVGSGSGTDFTLRISRVEAEDVGFYYCMQSKDFPLTFGGGTKVDLK
Turning to B1, the Kd in the experiment with FP8-1LSF [1] was 6.1 nM; in the experiment with FP8-1LSF [2] it was 87.1 nM; with FP8-1M6T, greater than 2000 nM.
